Record: PubChem BioAssay AID624099 (ICCB-Longwood, 2012)
This is an unselected part of about 21,000 deposited reagents. 497 of them (2.4%) count as active. 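Higher z means weaker E2 silencing; only reporter increases were scored, and knock-downs that hurt cell survival may mask genuine repressor factors.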 Reagents against one gene are numbered here.

Assay: 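Human genes that papillomavirus E2 requires to repress the HPV18 LCR promoter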 (primary screen)
Cell system: human C33A cervical carcinoma cells (HPV-negative) stably expressing BPV1 E2 and an HPV18 LCR luciferase reporter
Knock-down reagent: siRNA pool against human genes, 40 nM
Timing: 72 h
Detection: 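Per-well luciferase luminescence, z-scored on each plate against the plate mean and SD with control wells left out, then averaged across three replicate plates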
Reading the numbers: mean z-score and z-score: higher = stronger reporter signal, weaker E2 silencing
Active means: 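Mean z ≥ 2 together with z ≥ 2 in two or more of the three replicates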

What is on record for TET2 (GeneID 54790) #1?
mean z-score: -1.01; z-score, replicate A: -1.44; z-score, replicate B: -1.06; z-score, replicate C: -0.53; Call: inactive

With TET2 (GeneID 54790) #2, what was measured?
mean z-score: 1.15; z-score, replicate A: 1.59; z-score, replicate B: 1.21; z-score, replicate C: 0.65; Call: inactive

For TFAM (GeneID 7019), how do the results read?
mean z-score: -1.26; z-score, replicate A: -1.23; z-score, replicate B: -1.32; z-score, replicate C: -1.24; Call: inactive

For SYTL5 (GeneID 94122), what does the deposit list?
mean z-score: -0.61; z-score, replicate A: -0.8; z-score, replicate B: -0.27; z-score, replicate C: -0.76; Call: inactive

With SRSF10 (GeneID 10772), what does the deposit list?
mean z-score: -0.96; z-score, replicate A: -0.64; z-score, replicate B: -0.9; z-score, replicate C: -1.35; Call: inactive

For GBGT1 (GeneID 26301), how do the results read?
mean z-score: 1.16; z-score, replicate A: 1.39; z-score, replicate B: 1.06; z-score, replicate C: 1.04; Call: inactive

How did the screen score LIM2 (GeneID 3982)?
mean z-score: 0.32; z-score, replicate A: 0.43; z-score, replicate B: 0.22; z-score, replicate C: 0.3; Call: inactive

With LOC388416 (retired record) (GeneID 388416), how do the results read?
mean z-score: -1.7; z-score, replicate A: -1.65; z-score, replicate B: -1.61; z-score, replicate C: -1.83; Call: inactive

Which result is listed for EIF2AK1 (GeneID 27102)?
mean z-score: -0.27; z-score, replicate A: 0.07; z-score, replicate B: -0.38; z-score, replicate C: -0.51; Call: inactive

Which result is listed for N4BP2L2 (GeneID 10443) #1?
mean z-score: 0.27; z-score, replicate A: 0.09; z-score, replicate B: 0.07; z-score, replicate C: 0.63; Call: inactive

Which result is listed for N4BP2L2 (GeneID 10443) #2?
mean z-score: 0.56; z-score, replicate A: 0.43; z-score, replicate B: 0.62; z-score, replicate C: 0.63; Call: inactive

For COL6A1 (GeneID 1291), how do the results read?
mean z-score: -0.49; z-score, replicate A: -0.46; z-score, replicate B: -0.5; z-score, replicate C: -0.51; Call: inactive

For LOC400940 (GeneID 400940), what was measured?
mean z-score: -0.11; z-score, replicate A: -0.02; z-score, replicate B: -0.15; z-score, replicate C: -0.17; Call: inactive

What is on record for LINC00942 (GeneID 100292680)?
mean z-score: 0.57; z-score, replicate A: 0.3; z-score, replicate B: 0.33; z-score, replicate C: 1.09; Call: inactive

Which result is listed for MARCHF6 (GeneID 10299)?
mean z-score: -0.72; z-score, replicate A: -0.73; z-score, replicate B: -0.65; z-score, replicate C: -0.79; Call: inactive

For CPT2 (GeneID 1376), how do the results read?
mean z-score: 0.4; z-score, replicate A: -0.07; z-score, replicate B: 0.41; z-score, replicate C: 0.86; Call: inactive

With ZNF654 (GeneID 55279), what does the deposit list?
mean z-score: -0.32; z-score, replicate A: -0.61; z-score, replicate B: -0.75; z-score, replicate C: 0.41; Call: inactive

What is on record for ZFR2 (GeneID 23217) #1?
mean z-score: -0.13; z-score, replicate A: -0.11; z-score, replicate B: 0; z-score, replicate C: -0.28; Call: inactive

With ZFR2 (GeneID 23217) #2, how do the results read?
mean z-score: -0.91; z-score, replicate A: -0.79; z-score, replicate B: -0.98; z-score, replicate C: -0.97; Call: inactive

How did the screen score SLC44A2 (GeneID 57153)?
mean z-score: -1.39; z-score, replicate A: -1.42; z-score, replicate B: -1.37; z-score, replicate C: -1.38; Call: inactive

For UQCRQ (GeneID 27089), what was measured?
mean z-score: -0.93; z-score, replicate A: -0.8; z-score, replicate B: -1.01; z-score, replicate C: -0.99; Call: inactive

In a second layout: results already given.
| target | reagent | mean z-score | z-score, replicate A | z-score, replicate B | z-score, replicate C | Call |
| --- | --- | --- | --- | --- | --- | --- |
| LOC388416 (retired record) (GeneID 388416) | 1 | -1.7 | -1.65 | -1.61 | -1.83 | inactive |
| EIF2AK1 (GeneID 27102) | 1 | -0.27 | 0.07 | -0.38 | -0.51 | inactive |
